What was measured:
SEC = target: the molecule itself; assay: SEC
AUC = target: the molecule itself; assay: AUC

B1: Mycobacterium tuberculosis UvrD1 (Rv0949), wild type (enzyme)
chain: not shown
For B1, which “stoichiometry N” value (SEC) is on record?
The value was 2.

What about the “stoichiometry N” value (AUC) of the same protein?
The value was at least 2.
